The test system of the data set is primary human hepatocytes.

For the substance Aflatoxin B1, the “Cytotoxicity in BioActivator hepatocytes at end of co-culture (in words)” value is given as “LC50 responses”.

The record behind these values is patent US11376580B2, “Methods and systems comprising modified pipettes for transferring and preserving biomaterial” (UNIVERSITY OF PITTSBURGH—OF THE COMMONWEALTH SYSTEM OF …, priority 2017, dated 2022).
